Results of unrelated studies side by side (data: NIAID ChemDB).

Common to all: tests on isolated targets; agent: HIV-1; protein: Protease

ICn: concentration for n% inhibition.

compound	read-out	read by	strain or isolate	value
COc1cc(O)cc2c1C[C@@H](O)[C@@H](c1cc(O)c(OC)c(O)c1)O2	IC50	HPLC	IIIB	>100 µg/mL
COc1ccc(S(=O)(=O)N(CC(C)C)C[C@@H](O)[C@H](Cc2ccccc2)NC(=O)c2cccnc2)cc1	IC50	fluorescence		0.067 µM
CC(C)(C)OC(=O)N[C@@H](Cc1ccc([N+](=O)[O-])cc1)C(=O)NCC[C@@H](CO)NC(=O)[C@H](Cc1ccc([N+](=O)[O-])cc1)NC(=O)OC(C)(C)C	IC50	HPLC		4.3 µM
COc1ccc(S(=O)(=O)N(CC(C)C)C[C@@H](O)[C@H](Cc2ccccc2)NC(=O)c2ccncc2)cc1	IC50	fluorescence		0.018 µM
Oc1cc(O)c2c(c1)O[C@H](c1ccc(O)c(O)c1)[C@H](O)C2c1c(O)cc(O)c2c1O[C@H](c1cc(O)c(O)c(O)c1)[C@H](O)C2	IC50	HPLC	IIIB	>100 µg/mL
CC(=O)N[C@@H](Cc1ccccc1)C(=O)N[C@H](C(=O)N[C@@H](CC(C)C)[C@@H](O)CC(=O)N[C@@H](CC(C)C)C(=O)N[C@@H](Cc1ccccc1)C(N)=O)C(C)C	IC50			0.09 µM
CC(=O)Nc1ccc(S(=O)(=O)N(CC(C)C)C[C@@H](O)[C@H](Cc2ccccc2)NC(=O)OC(C)(C)C)cc1	Ki			0.22 µM
COc1ccc(S(=O)(=O)N(CC(C)C)C[C@@H](O)[C@H](Cc2ccccc2)NC(=O)c2cc(C)ccc2C)cc1	IC50	fluorescence		0.007 µM
C=C(C)CN(C[C@@H](O)[C@H](Cc1ccccc1)NC(=O)OC(C)(C)C)S(=O)(=O)c1ccc(NC(C)=O)cc1	Ki	HPLC		0.006 µM
CC(=O)N[C@@H](Cc1ccc(N)cc1)C(=O)N[C@H](C(=O)N[C@@H](CC(C)C)[C@@H](O)CC(=O)N[C@@H](CC(C)C)C(=O)N[C@@H](Cc1ccccc1)C(N)=O)C(C)C	IC50			0.08 µM
Cc1cccc(OCC(=O)N[C@@H](CC(N)=O)C(=O)N[C@@H](Cc2ccccc2)[C@H](O)C(=O)N2CSC(C)(C)[C@H]2C(=O)NC(C)(C)C)c1C	IC50			<0.05 µM
O=C(N[C@@H](Cc1ccccc1)[C@H](O)CN(CC1CCCO1)S(=O)(=O)c1ccc(F)cc1)O[C@H]1CCOC1	Ki	HPLC		0.014 µM
CC[C@H](C)[C@H](NC(=O)C[C@H](O)[C@H](CC(C)C)NC(=O)[C@H](CC(N)=O)NC(=O)[C@H](CCC(N)=O)NC(=O)[C@H](CO)NC(=O)[C@@H](N)C(C)C)C(=O)N[C@H](C(=O)O)C(C)C	Ki			3.69 µM
CC(C)CN(C[C@@H](O)[C@H](Cc1ccccc1)NC(=O)OCc1ccccc1)S(C)(=O)=O	IC50	fluorescence		<10 µM
CC(C)c1nc(COC(=O)N[C@H](C(=O)N[C@@H](Cc2ccccc2)[C@@H](O)CN(Cc2ccc(O)cc2)NC(=O)OC(C)(C)C)C(C)C)co1	IC50	fluorescence		<0.0005 µM
COc1ccc(S(=O)(=O)N(CC2CCCC2)C[C@@H](O)[C@H](Cc2ccccc2)NC(=O)OCc2cccnc2)cc1	Ki	HPLC		<0.0001 µM
COc1ccc(S(=O)(=O)N(CC(C)C)C[C@@H](O)[C@H](Cc2ccc(-c3ccc(OC)c(C)c3)cc2)NC(=O)O[C@H]2CCOC2)cc1	IC50			0.0112 µM
Oc1cc(O)c2c(c1)O[C@H](c1ccc(O)c(O)c1)[C@H](O)[C@H]2c1c(O)cc(O)c2c1O[C@H](c1ccc(O)c(O)c1)[C@H](O)C2	IC50	HPLC	IIIB	<100 µg/mL
O=C(N[C@@H](Cc1cccc2ccccc12)C(=O)NCC[C@@H](CO)NC(=O)[C@H](Cc1cccc2ccccc12)NC(=O)OCC1c2ccccc2-c2ccccc21)OCC1c2ccccc2-c2ccccc21	IC50	HPLC		1.36 µM
CC(=O)N[C@@H](Cc1ccc(O)cc1)C(=O)N[C@H](C(=O)N[C@@H](CC(C)C)[C@@H](O)CC(=O)N[C@@H](CC(C)C)C(=O)N[C@@H](Cc1ccccc1)C(N)=O)C(C)C	IC50			0.043 µM
CC(C)CN(C[C@@H](O)[C@H](Cc1ccc(-c2cccc(C#N)c2)cc1)NC(=O)O[C@H]1CCOC1)S(=O)(=O)c1ccc(N)cc1	IC50			0.00249 µM
COc1ccc(C[C@H](NC(C)=O)C(=O)N[C@H](C(=O)N[C@@H](CC(C)C)[C@@H](O)CC(=O)N[C@@H](CC(C)C)C(=O)N[C@@H](Cc2ccccc2)C(N)=O)C(C)C)cc1	IC50			0.016 µM
CC(C)CN(C[C@@H](O)[C@H](Cc1ccc(-c2cccnc2)cc1)NC(=O)O[C@H]1CCOC1)S(=O)(=O)c1ccc(N)cc1	IC50			0.00043 µM
CCCC[C@H](NC(=O)c1cnc2ccccc2n1)C(=O)CC(Cc1ccc2ccccc2c1)C(=O)N[C@@H](CCC(N)=O)C(N)=O	IC50	fluorescence		>10 µM
CC(C)(C)NC(=O)[C@@H]1C[C@H](c2ccccc2)CN1C(=O)[C@@H](O)[C@H](Cc1ccccc1)NC(=O)[C@H](CC(N)=O)NC(=O)OCc1ccccc1	IC50			>0.05 µM
CC(C)CCN(C[C@@H](O)[C@H](Cc1ccccc1)NC(=O)OCc1ccccc1)S(=O)(=O)Cc1ccccc1	IC50	fluorescence		>10 µM
CC(C)(C)c1cc2c(O)c(c1)Cc1cc(C(C)(C)C)cc3c1OCCOc1ccc4ccccc4c1C=Nc1ccccc1N=Cc1c(ccc4ccccc14)OCCOc1c(cc(C(C)(C)C)cc1Cc1cc(C(C)(C)C)cc(c1O)C3)C2	Ki	FRET / fluorescence		65 µM
COc1ccc(S(=O)(=O)N(CC(C)C)C[C@@H](O)[C@H](Cc2ccc(I)cc2)NC(=O)O[C@H]2CCOC2)cc1	IC50			0.00192 µM
O=C(N[C@@H](Cc1ccccc1)C(=O)N[C@H](CO)CCCNC(=O)[C@@H](Cc1ccccc1)NC(=O)OCC1c2ccccc2-c2ccccc21)OCC1c2ccccc2-c2ccccc21	IC50	HPLC		0.54 µM
CC(C)c1nc(CN(C)C(=O)N[C@H](C(=O)NN(Cc2ccccc2)C[C@H](O)[C@H](Cc2ccccc2)NC(=O)OCc2cncs2)C(C)C)co1	IC50	fluorescence		<0.0005 µM
CCCCC(CC(=O)[C@H](CCCC)NC(=O)c1cnc2ccccc2n1)C(=O)N[C@@H](CCC(N)=O)C(=O)N[C@@H](CCCN=C(N)N)C(N)=O	IC50	fluorescence		>10 µM
NC(=O)C[C@H](NC(=O)COc1cccc2ccccc12)C(=O)N[C@@H](Cc1ccccc1)[C@H](O)C(=O)N1CSC[C@H]1C(=O)NC1CC1	IC50			<0.05 µM
O=C1N(Cc2ccccc2)[C@H](Cc2ccccc2)[C@H](O)CN2[C@@H]3CC[C@]12C[C@@H]3NCc1ccccc1	Ki			2.8 µM
CC(=O)N[C@@H](Cc1cccc2ccccc12)C(=O)N[C@H](C(=O)N[C@@H](CC(C)C)[C@@H](O)CC(=O)N[C@@H](CC(C)C)C(=O)N[C@@H](Cc1ccccc1)C(N)=O)C(C)C	IC50			0.006 µM
CC(=O)Nc1ccc(S(=O)(=O)N(C)C[C@@H](O)[C@H](Cc2ccccc2)NC(=O)OC(C)(C)C)cc1Cl	Ki	HPLC		>5 µM
CC(=O)Oc1cc(OC(C)=O)cc(Oc2c(OC(C)=O)cc3c(c2OC(C)=O)Oc2cc(Oc4c(OC(C)=O)cc(OC(C)=O)cc4OC(C)=O)c(OC(C)=O)c(OC(C)=O)c2O3)c1	IC50	HPLC		>100 µM
CC(C)c1nc(CN(C)C(=O)N[C@H](C(=O)NN(Cc2ccccc2)C[C@H](O)[C@H](Cc2ccccc2)NC(=O)OCc2cncs2)C(C)C)cs1	IC50	fluorescence		<0.0005 µM
CC(C)(C)NC(=O)[C@H]1Cc2ccccc2CN1C(=O)[C@@H](O)[C@H](Cc1ccccc1)NC(=O)[C@H](CC(N)=O)NC(=O)OCc1ccccc1	IC50			>0.05 µM
COc1c(O)cc([C@H]2Oc3c(c(O)cc(O)c3C3c4c(O)cc(O)cc4O[C@H](c4ccc(O)c(O)c4)[C@@H]3O)C[C@H]2O)cc1O	IC50	HPLC	IIIB	>100 µg/mL
CC(C)C[C@H](NC(=O)C[C@H](O)[C@H](CC(C)C)NC(=O)[C@@H](NC(=O)c1ccc2ccccc2n1)C(C)C)C(=O)N[C@@H](Cc1ccccc1)C(N)=O	IC50			3.65 µM
COc1ccc(S(=O)(=O)N(CC(C)C)C[C@@H](O)[C@H](Cc2ccccc2)NC(=O)c2ccc(CS(C)(=O)=O)cc2)cc1	IC50	fluorescence		<1 µM
C=C(C)CN(C[C@@H](O)[C@H](Cc1ccccc1)NC(=O)OC(C)(C)C)S(=O)(=O)c1ccc(F)cc1	Ki	HPLC		0.06 µM
COc1cc(CN2CCN(C[C@@H](O)[C@H](Cc3ccccc3)NC(=O)O[C@@H]3CCS(=O)(=O)[C@@H]3C(C)C)[C@H](C(=O)NC(C)(C)C)C2)cc2c1OCO2	IC50	HPLC		0.0012 µM
CCCCC(CC(O)[C@H](CCCC)NC(=O)[C@@H](NC(=O)[C@@H](NC(=O)c1ccccc1N)[C@@H](C)O)[C@@H](C)CC)C(=O)N[C@@H](CCC(N)=O)C(=O)N[C@@H](CCCN=C(N)N)C(N)=O	IC50	fluorescence		0.038 µM
CC(C)CN(C[C@@H](O)[C@H](Cc1ccc(-c2ccncc2)cc1)NC(=O)O[C@H]1CCOC1)S(=O)(=O)c1ccc(N)cc1	IC50			0.00048 µM
CC(C)c1nc(CN(C)C(=O)N[C@H](C(=O)NN(Cc2cccc(O)c2)C[C@H](O)[C@H](Cc2ccccc2)NC(=O)OCc2cncs2)C(C)C)cs1	IC50	fluorescence		~0.0005 µM
CC(C)(C)NC(=O)[C@H]1N(C(=O)[C@@H](O)[C@H](Cc2ccccc2)NC(=O)[C@H](CC(N)=O)NC(=O)COc2cccc(Cl)c2)CSC1(C)C	IC50			<0.05 µM
O=C(N[C@H](C(=O)NCC[C@@H](CO)NC(=O)[C@@H](NC(=O)OCC1c2ccccc2-c2ccccc21)[C@H](O)c1ccccc1)[C@H](O)c1ccccc1)OCC1c2ccccc2-c2ccccc21	IC50	HPLC		0.72 µM

Repeating the final 4 entries:

{"compound": "CC(C)CN(C[C@@H](O)[C@H](Cc1ccc(-c2ccncc2)cc1)NC(=O)O[C@H]1CCOC1)S(=O)(=O)c1ccc(N)cc1", "read-out": "IC50", "value": "0.00048 µM"}
{"compound": "CC(C)c1nc(CN(C)C(=O)N[C@H](C(=O)NN(Cc2cccc(O)c2)C[C@H](O)[C@H](Cc2ccccc2)NC(=O)OCc2cncs2)C(C)C)cs1", "read-out": "IC50", "read by": "fluorescence", "value": "~0.0005 µM"}
{"compound": "CC(C)(C)NC(=O)[C@H]1N(C(=O)[C@@H](O)[C@H](Cc2ccccc2)NC(=O)[C@H](CC(N)=O)NC(=O)COc2cccc(Cl)c2)CSC1(C)C", "read-out": "IC50", "value": "<0.05 µM"}
{"compound": "O=C(N[C@H](C(=O)NCC[C@@H](CO)NC(=O)[C@@H](NC(=O)OCC1c2ccccc2-c2ccccc21)[C@H](O)c1ccccc1)[C@H](O)c1ccccc1)OCC1c2ccccc2-c2ccccc21", "read-out": "IC50", "read by": "HPLC", "value": "0.72 µM"}

Blank or dashed fields: not listed here. Neighbouring rows are from separate reports.